Pooled drug test results. Numbers come from NIAID ChemDB, via PubChem.

Shared fields: whole-cell or culture tests; agent: Staphylococcus aureus; endpoint: MIC

Neighbouring rows are from separate reports.

structure	strain	value
CCCCCCCCCCCC[N+](C)(C)COCC(C)CC	ATCC33592	2 µM
Cn1cc(C(=O)O)c(=O)c2cc3cc(F)c(N4CCN(Cc5ccc(F)cc5)CC4)cc3nc21	LF11C128 (quinolone-resistant)	1 µg/mL
CCC(=O)NC[C@H]1CN(c2ccc3c(c2)-n2cccc2COC3)C(=O)O1	ATCC 29213 (MSSA)	4 µg/mL
CCCCCCCCCCCC[N+](C)(C)COCC(C)CCC	ATCC33592	1.65 µM
CC(C)C(=S)NC[C@H]1CN(c2ccc3c(c2)-n2cccc2COC3)C(=O)O1	ATCC 29213 (MSSA)	4 µg/mL
CC[C@H]1OC(=O)[C@H](C)C(=O)[C@H](C)[C@@H](O[C@@H]2O[C@H](C)C[C@H](N(C)C)[C@H]2O)[C@@]2(C)C[C@@H](C)C(=NC(C)=O)[C@H](C)[C@@H](OC/C(=N\OCc3ccc(-c4cccc(N)n4)s3)CO2)[C@]1(C)O	29213 (erythromycin A-susceptible)	0.25 µg/mL
CC[C@H]1OC(=O)[C@H](C)C(=O)[C@H](C)[C@@H](O[C@@H]2O[C@H](C)C[C@H](N(C)C)[C@H]2O)[C@@]2(C)C[C@@H](C)C(=NC(=O)CO)[C@H](C)C(OC/C(=C\C=C\c3ccccc3)CO2)[C@]1(C)O	27660 (erythromycin-resistant)	0.5 µg/mL
CCCCCCCCCCCC[N+](C)(C)COCCC	ATCC33592	1.55 µM
O=C(Nc1ccc(C(F)(F)F)cc1)Nc1ccc(C(F)(F)F)cc1	MI273	53 µM
CO/N=C1\CN(c2nc3c(cc2F)c(=O)c(C(=O)O)cn3C2CC2)CC1CN	KU2240	0.031 µg/mL
CC[C@H]1OC(=O)[C@H](C)C(=O)[C@H](C)[C@@H](O[C@@H]2O[C@H](C)C[C@H](N(C)C)[C@H]2O)[C@@]2(C)C[C@@H](C)C(=NC(C)=O)[C@H](C)C(OC/C(=C\C=C\c3ccc([N+](=O)[O-])cc3)CO2)[C@]1(C)O	29213 (erythromycin-susceptible)	0.5 µg/mL
CC[C@H]1OC(=O)[C@@](C)(F)C(=O)[C@H](C)[C@@H](O[C@@H]2O[C@H](C)C[C@H](N(C)C)[C@H]2O)[C@@]2(C)C[C@@H](C)C(=NC(C)=O)[C@H](C)[C@@H](OC/C(=N\OCc3ccc(N)nc3)CO2)[C@]1(C)O	29213 (erythromycin A-susceptible)	0.13 µg/mL
CCCCCCCCCCCC[N+](C)(C)COCC(C)C	ATCC33592	14.9 µM
O=C(CO)N1CCN(c2ccc(N3C[C@H](CNc4ccon4)OC3=O)cc2F)CC1	078 (oxford)	1 µg/mL
O=C(Nc1cccc(C2=NCCN2)c1)Nc1cccc(C2=NCCN2)c1	MI273	37 µM
Cc1c(N)c(F)cc2c(=O)c(C(=O)O)cn(-c3cc(N)c(F)cc3F)c12	W200 (methicillin-resistant)	0.03 µg/mL
CCOC(CNc1cc2c(cc1F)c(=O)c(C(=O)O)cn2C1CC1)OCC	ATCC 5278 (methicillin-resistant)	>100 µg/mL
CS(=O)(=O)N1CCN(c2ccc(N3C[C@H](COc4ccon4)OC3=O)cc2F)CC1	078 (oxford)	4 µg/mL
CCN(CC)CCCCC(C)Nc1cc2c(cc1F)c(=O)c(C(=O)O)cn2C1CC1	ATCC 5278 (methicillin-resistant)	>100 µg/mL
CC[C@H]1OC(=O)[C@H](C)C(=O)[C@H](C)[C@@H](O[C@@H]2O[C@H](C)C[C@H](N(C)C)[C@H]2O)[C@@]2(C)C[C@@H](C)C(=NC(C)=O)[C@H](C)C(OC/C(=C\C=C\c3ccc(F)cc3)CO2)[C@]1(C)O	27660 (erythromycin-resistant)	0.5 µg/mL
Cc1c(NCCO)c(F)cc2c(=O)c(C(=O)O)cn(-c3cc(N)c(F)cc3F)c12	209P	0.015 µg/mL
CCCCCCCCCCCC[N+](C)(C)COC(C)CCCCCC	ATCC 6538	1.53 µM
CC(=O)NC[C@H]1CN(c2ccc3c(c2)OCc2nccn2-3)C(=O)O1	25470	0.5 µg/mL
CC[C@H]1OC(=O)[C@H](C)C(=O)[C@H](C)[C@@H](O[C@@H]2O[C@H](C)C[C@H](N(C)C)[C@H]2O)[C@@]2(C)C[C@@H](C)C(=NC(C)=O)[C@H](C)[C@@H](OC/C(=N\OCc3ccc(-c4ncccn4)s3)CO2)[C@]1(C)O	33591 (erythromycin methicillin-resistant)	32 µg/mL
CCNc1c(F)cc2c(=O)c(C(=O)O)cn(-c3cc(N)c(F)cc3F)c2c1C	W44 (methicillin-resistant)	0.12 µg/mL
CCCCCCCCCCCC[N+](C)(C)CSCCCCCCCC	ATCC 6538	12.1 µM
O=C(O)c1cn(C2CC2)c2cc(NCCCCO)c(F)cc2c1=O	ATCC 5278 (methicillin-resistant)	>100 µg/mL
CC[C@H]1OC(=O)[C@H](C)C(=O)[C@H](C)[C@@H](O[C@@H]2O[C@H](C)C[C@H](N(C)C)[C@H]2O)[C@@]2(C)C[C@@H](C)C(=NC(C)=O)[C@H](C)C(OC/C(=C\C=C\c3cccnc3)CO2)[C@]1(C)O	33591 (erythromycin methicillin-resistant)	>64 µg/mL
O=C(NNC(=O)NC1CCCCC1)Nc1cc(C(F)(F)F)cc(C(F)(F)F)c1	MI273	100 µM
Cn1cc(C(=O)O)c(=O)c2cc3cc(F)c(NC4CCCCC4)cc3nc21	IP8203 (quinolone-sensitive)	1 µg/mL
CCCCCCCCCCOC[N+](C)(C)CCCCCCCC	ATCC 6538	2.75 µM
CC[C@H]1OC(=O)[C@@](C)(F)C(=O)[C@H](C)[C@@H](O[C@@H]2O[C@H](C)C[C@H](N(C)C)[C@H]2O)[C@@]2(C)C[C@@H](C)C(=NC(C)=O)[C@H](C)[C@@H](OC/C(=N\OCc3ccc(-c4ncccn4)s3)CO2)[C@]1(C)O	33591 (erythromycin methicillin-resistant)	16 µg/mL
O=C(CC(=O)Nc1ccc(F)cc1)Nc1ccc(F)cc1	MI273	>300 µM
CC(=S)NC[C@H]1CN(c2ccc3c(c2)-n2cccc2COC3)C(=O)O1	ATCC 33591 (MRSA)	0.5 µg/mL
O=C(NNC(=O)Nc1ccc(Cl)c(Cl)c1)Nc1ccc(Cl)c(Cl)c1	MI273	4.9 µM
CCSCCNc1cc2c(cc1F)c(=O)c(C(=O)O)cn2C1CC1	ATCC 6538P	>100 µg/mL
O=C(CCC(=O)Nc1cc(C(F)(F)F)cc(C(F)(F)F)c1)Nc1cc(C(F)(F)F)cc(C(F)(F)F)c1	MI273	>300 µM
CCOC(=O)NC[C@H]1CN(c2ccc3c(c2)-n2cccc2COC3)C(=O)O1	ATCC 49951 (SMITH)	16 µg/mL
CCCCCCCCCCCC[N+](C)(C)COCCCCCCCC	ATCC33592	0.77 µM
O=C(NC[C@H]1CN(c2ccc3c(c2)-n2cccc2COC3)C(=O)O1)c1ccccc1	ATCC 33591 (MRSA)	>32 µg/mL
COCC(C)Nc1cc2c(cc1F)c(=O)c(C(=O)O)cn2C1CC1	ATCC 5278 (methicillin-resistant)	>100 µg/mL
O=C1O[C@@H](COc2ccon2)CN1c1ccc(N2CCOCC2)c(F)c1	078 (oxford)	2 µg/mL
NC(=O)NNC(=O)Nc1cc(C(F)(F)F)cc(C(F)(F)F)c1	MI273	>446 µM
N#Cc1ccc(N2CCN(c3ccc(N4C[C@H](CNc5cnccn5)OC4=O)cc3F)CC2)nn1	122 (novobiocin-resistant)	2 µg/mL
CC(N)CCCCNc1cc2c(cc1F)c(=O)c(C(=O)O)cn2C1CC1	ATCC 6538P	>100 µg/mL
CC[C@H]1OC(=O)[C@@](C)(F)C(=O)[C@H](C)[C@@H](O[C@@H]2O[C@H](C)C[C@H](N(C)C)[C@H]2O)[C@@]2(C)C[C@@H](C)C(=NC(C)=O)[C@H](C)[C@@H](OC/C(=N\OCc3ccc(-c4csnn4)nc3)CO2)[C@]1(C)O	33591 (erythromycin methicillin-resistant)	32 µg/mL

A second listing of 6 rows from above:

structure | strain | value
CC[C@H]1OC(=O)[C@H](C)C(=O)[C@H](C)[C@@H](O[C@@H]2O[C@H](C)C[C@H](N(C)C)[C@H]2O)[C@@]2(C)C[C@@H](C)C(=NC(C)=O)[C@H](C)C(OC/C(=C\C=C\c3ccc(F)cc3)CO2)[C@]1(C)O | 27660 (erythromycin-resistant) | 0.5 µg/mL
CCCCCCCCCCCC[N+](C)(C)CSCCCCCCCC | ATCC 6538 | 12.1 µM
CC[C@H]1OC(=O)[C@H](C)C(=O)[C@H](C)[C@@H](O[C@@H]2O[C@H](C)C[C@H](N(C)C)[C@H]2O)[C@@]2(C)C[C@@H](C)C(=NC(C)=O)[C@H](C)C(OC/C(=C\C=C\c3ccc([N+](=O)[O-])cc3)CO2)[C@]1(C)O | 29213 (erythromycin-susceptible) | 0.5 µg/mL
CCC(=O)NC[C@H]1CN(c2ccc3c(c2)-n2cccc2COC3)C(=O)O1 | ATCC 29213 (MSSA) | 4 µg/mL
COCC(C)Nc1cc2c(cc1F)c(=O)c(C(=O)O)cn2C1CC1 | ATCC 5278 (methicillin-resistant) | >100 µg/mL
N#Cc1ccc(N2CCN(c3ccc(N4C[C@H](CNc5cnccn5)OC4=O)cc3F)CC2)nn1 | 122 (novobiocin-resistant) | 2 µg/mL